Test results from patent publication US20220089663A1, “PROTEINS AND FLUOROPHORE-CONTAINING COMPOUNDS SELECTIVE FOR NaV1.7” (MEMORIAL SLOAN KETTERING CANCER CENTER, priority 2019, published 2022).

Experiment: acute in vivo toxicity after intravenous injection
Set-up: species or system mouse
Details: 7 nmol i.v.
Description: Acute in vivo toxicity. All animal experiments were performed in accordance with protocols approved by the Institutional Animal Care and Use Committee of MSK and followed the National Institute of Health guidelines for animal welfare. Six athymic nude mice 6-8 weeks old were purchased from Envigo RMS, Inc. An intravenous (IV) catheter was placed in tail vein of each mouse and they were anesthetized using Isoflurane (Novaplus, Telangana-India). Anesthesia was maintained using 1.0 to 1.5 L/min of Isoflurane and 2 L/min of oxygen. Three animals were injected with 68 μM, 7 nmol Hsp1a-FL in 100 μL of PBS, and the other three with […], of PBS. Animals were monitored using a rodent surgical monitor (Indus instruments, Houston, Tex.) before, during, and up to 16 minutes after injection. Numeric data points represent averaged values of 5±1 seconds duration. Data was collected before injection, 15 seconds after injection, 5 minutes after injection and 15 minutes after injection. Mouse body core temperature was measured by placing a rectal probe and electronically regulated via a surgical platform. The high-resolution electrocardiogram (EKG) was measured by placing non-invasive electrodes on the 4 paws and electrical contact was assured using a conducting gel (Electrode cream, Indus instruments, Houston, Tex.). Heart rate was automatically calculated from the R-R peaks derived from the EKG signal. Peripheral capillary oxygen saturation (SpO2) was non-invasively measured by placing a clip sensor on the animal's left thigh.
Statistical Analysis. Data were statistically analyzed by generalized estimating equations followed by LSD post hoc test when appropriate using SPSS 23.0. […] Average and standard deviations were calculated for each mouse.
Unless otherwise stated, data points represent mean values and error bars represent the standard deviation of biological replicates (mean±SEM). All p-values were calculated using a Student's unpaired t-test. […] Statistical significance was determined with alpha=0.05. […]

CC[C@H](C)[C@H](NC(=O)[C@H](CCCCN)NC(=O)[C@@H]1CSSC[C@@H]2NC(=O)[C@@H]3CCCN3C(=O)[C@H](CCCNC(=N)N)NC(=O)[C@H](CCC(=O)O)NC(=O)[C@H](CO)NC(=O)[C@H](CC(=O)O)NC(=O)[C@@H]3CSSC[C@H](NC(=O)[C@H](C(C)C)NC(=O)[C@H](CC(C)C)NC(=O)CNC(=O)[C@H](CCC(=O)O)NC(=O)[C@H](CSSC[C@H](NC(=O)[C@@H](N)Cc4ccc(O)cc4)C(=O)N[C@@H](CCC(N)=O)C(=O)N[C@@H](CCCCNC(=O)CCC4=[N+]5C(=Cc6c(C)cc(C)n6[B-]5(F)F)C=C4)C(=O)N[C@@H](Cc4ccccc4)C(=O)N[C@@H](CC(C)C)C(=O)N[C@@H](Cc4c[nH]c5ccccc45)C(=O)N[C@@H]([C@@H](C)O)C(=O)N3)NC2=O)C(=O)N[C@@H](CCCNC(=N)N)C(=O)N[C@@H](CC(C)C)C(=O)N[C@@H](Cc2c[nH]c3ccccc23)C(=O)N1)C(=O)N[C@@H](CC(N)=O)C(N)=O [Hsp1a-FL]
average percentage of oxygen saturation (SpO2) (15 seconds post injection): 90.3 (SD=6.0) % | average percentage of oxygen saturation (SpO2) (5 minutes post injection): 89.2 (SD=7.4) % | average percentage of oxygen saturation (SpO2) (15 minutes post injection): 90.3 (SD=5.6) %
